Data reported in article PMC2877746.

Experiments:
[1] = target: NA of recombinant WT A/Turkey/15/06 (H5N1) virus (Influenza A virus (A/Turkey/15/2006(H5N1)), UniProt A5HJ19); assay: NA enzyme inhibition assay (MUNANA), WT virus
[2] = target: NA of recombinant WT A/Turkey/15/06 (H5N1) virus (Influenza A virus (A/Turkey/15/2006(H5N1)), UniProt A5HJ19); assay: NA enzyme kinetics (Ki), WT virus

SMILES	Mean fold change in IC50 compared to WT [1] [fold]	Mean fold change in Ki compared to WT [2] [fold]
CCOC(=O)C1=C[C@@H](OC(CC)CC)[C@H](NC(C)=O)[C@@H](N)C1	1.0	
CCC(CC)O[C@@H]1C=C(C(=O)O)C[C@H](N)[C@H]1NC(C)=O	1.0	1.0
CC(=O)N[C@H]1[C@H]([C@H](O)[C@H](O)CO)OC(C(=O)O)=C[C@@H]1N=C(N)N	1.0	1.0
